PubChem BioAssay AID504761, Drosophila RNAi Screening Center, 2011
The deposit covers about 22,000 reagents; this is an unselected part of those that have a named target and a result. In the full data, 116 (0.52%) got an active call. 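Calls depend on retest data that are not deposited; infection was ranked per plate without normalising between plates; the unit of the infection score is not given.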 Raw values are not corrected between plates. Reagents against one gene are numbered here. Not given: the amount of reagent, the time to read-out.

Test: 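Insect host genes that dengue virus relies on to spread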 (primary screen)
Cells: D.Mel-2 cells from Drosophila
Reagent: long dsRNA against Drosophila genes
Challenge: infection with dengue virus type 2; dose and infection time not stated
Measured: 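Cells stained for dengue envelope protein and imaged; percent of infected cells per well on duplicate plates, ranked by infection, with stained nuclei counted for cell number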
Scale: infection score: higher = more virus-infected cells; cell count: higher = more cells in the well
Active means: 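Low infection ranks in the two replicates (chance level up to 0.065) followed by a retest with a 1.5-fold or larger significant decrease, p below 0.05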
Calls: active = confirmed: knock-down lowers infection; inactive = not picked or not confirmed

| target | reagent no. | infection score, replicate 1 | infection score, replicate 2 | cell count, replicate 1 | cell count, replicate 2 | Outcome |
| --- | --- | --- | --- | --- | --- | --- |
| CG30385 | 1 | 1.91 | 4.32 | 5956 | 6087 | inactive |
| Tango4 | 1 | 3.42 | 14.3 | 2891 | 2662 | inactive |
| Tango4 | 2 | 7.5 | 13.7 | 2092 | 1936 | inactive |
| CG30087 | 1 | 4.59 | 1.19 | 6292 | 6662 | inactive |
| CG30087 | 2 | 7.06 | 1.11 | 6724 | 6219 | inactive |
| CG7016 | 1 | – | – | 300 | 293 | inactive |
| Kal1 | 1 | 1.84 | 1.62 | 6647 | 6373 | inactive |
| Spn47C | 1 | 3.58 | 3.62 | 6343 | 6385 | inactive |
| Spn47C | 2 | 1.63 | 6.53 | 7034 | 6213 | inactive |
| mRpL10 | 1 | 17.6 | 23.9 | 4822 | 4731 | inactive |
| jigr1 | 1 | 4.95 | 0.21 | 1496 | 469 | inactive |
| jigr1 | 2 | 6.89 | 8.88 | 6808 | 6579 | inactive |
| ergic53 | 1 | 2.26 | 3.57 | 6030 | 6581 | inactive |
| hubl | 1 | 3.83 | 8.61 | 6787 | 6780 | inactive |
| Adck5 | 1 | 0.72 | 0.71 | 6227 | 6295 | inactive |
| CecB | 1 | – | 4.02 | 286 | 7214 | inactive |
| CG9518 | 1 | 1.81 | 1.94 | 6474 | 6582 | inactive |
| CG9518 | 2 | 5.16 | 7.7 | 6575 | 6413 | inactive |
| PolE2 | 1 | 1.48 | 6.98 | 6223 | 6951 | inactive |
| CG11400 | 1 | 15.9 | 9.43 | 6120 | 6182 | inactive |
| CG13577 | 1 | 3.84 | 12.7 | 5728 | 6674 | inactive |
| Fer3 | 1 | 5.57 | 7.74 | 6281 | 6655 | inactive |
| Fer3 | 2 | 1.3 | 11.4 | 6222 | 6020 | inactive |
| Golgin97 | 1 | 5.56 | 11.3 | 6259 | 6559 | inactive |
| CG6356 | 1 | 3.24 | 2.83 | 6199 | 6572 | inactive |
| CG13367 | 1 | 12.7 | 4.07 | 6190 | 6535 | inactive |
| CG13367 | 2 | 10.3 | 1.91 | 6353 | 6350 | inactive |
| CG42445 | 1 | 6.63 | 3.37 | 6170 | 6557 | inactive |
| CG13937 | 1 | 9.07 | 3.52 | 6464 | 6446 | inactive |
| GluRIIB | 1 | 5.27 | 4.96 | 6548 | 6811 | inactive |
| CG10333 | 1 | 12.8 | 6.86 | 5495 | 5306 | inactive |
| CG10333 | 2 | 23.7 | 38.6 | 6022 | 4399 | inactive |
| mus302 | 1 | 1.87 | 2.75 | 5551 | 5899 | inactive |
| CG6481 | 1 | 18 | 2.91 | 5996 | 6633 | inactive |
| Dr | 1 | 10.2 | 3.08 | 6395 | 6361 | inactive |
| Dr | 2 | 1.49 | 7.96 | 6369 | 6407 | inactive |
| CG12877 | 1 | 4.76 | – | 3065 | 361 | inactive |
| CG12025 | 1 | 1.82 | 4.25 | 6372 | 6420 | inactive |
| fs(1)K10 | 1 | 4.24 | 5.8 | 6105 | 6479 | inactive |
| fs(1)K10 | 2 | 0.33 | 3.16 | 5421 | 5973 | inactive |
| corto | 1 | 1.23 | 5.12 | 5771 | 644 | inactive |
| corto | 2 | 1.08 | 1.37 | 6489 | 6446 | inactive |
| CG12934 | 1 | 6.56 | 8.21 | 6505 | 6616 | inactive |
| CG12934 | 2 | 1.69 | 2.58 | 6230 | 6321 | inactive |
| Six4 | 1 | 2.48 | 3.16 | 6645 | 6651 | inactive |
| Six4 | 2 | 33.2 | 9.08 | 5952 | 5890 | inactive |
| CG32202 | 1 | 2.58 | 8.17 | 6621 | 6548 | inactive |
| CG8671 | 1 | 10.7 | 4.02 | 4939 | 6418 | inactive |
| CG8671 | 2 | 18 | 13.6 | 3089 | 5041 | inactive |
| CG8671 | 3 | 1.65 | 7.89 | 6654 | 6653 | inactive |
| CG17738 | 1 | 5.39 | 19.1 | 6770 | 6272 | inactive |
| CG17738 | 2 | 13.7 | 8.79 | 2735 | 3002 | inactive |
| cib | 1 | 16.8 | 1.48 | 3657 | 6770 | inactive |
| Acp36DE | 1 | 1.05 | 13.5 | 859 | 6357 | inactive |
| Klp68D | 1 | 9.72 | 12.1 | 6182 | 5918 | inactive |
| Klp68D | 2 | 12.9 | 22.5 | 5532 | 6345 | inactive |
| Rab3 | 1 | 3.25 | 12.5 | 6194 | 6304 | inactive |
| Fkbp39 | 1 | 17.5 | 18.1 | 5204 | 5224 | inactive |
| Fkbp39 | 2 | 0.94 | 2.62 | 5754 | 6041 | inactive |

10 consecutive reagents already listed, for reference:
| target | reagent no. | infection score, replicate 1 | infection score, replicate 2 | cell count, replicate 1 | cell count, replicate 2 | Outcome |
| --- | --- | --- | --- | --- | --- | --- |
| CG8671 | 2 | 18 | 13.6 | 3089 | 5041 | inactive |
| CG8671 | 3 | 1.65 | 7.89 | 6654 | 6653 | inactive |
| CG17738 | 1 | 5.39 | 19.1 | 6770 | 6272 | inactive |
| CG17738 | 2 | 13.7 | 8.79 | 2735 | 3002 | inactive |
| cib | 1 | 16.8 | 1.48 | 3657 | 6770 | inactive |
| Acp36DE | 1 | 1.05 | 13.5 | 859 | 6357 | inactive |
| Klp68D | 1 | 9.72 | 12.1 | 6182 | 5918 | inactive |
| Klp68D | 2 | 12.9 | 22.5 | 5532 | 6345 | inactive |
| Rab3 | 1 | 3.25 | 12.5 | 6194 | 6304 | inactive |
| Fkbp39 | 1 | 17.5 | 18.1 | 5204 | 5224 | inactive |
